# Measurements reported in PubChem BioAssay AID504720 (Sanford-Burnham Center for Chemical Genomics, 2011).
# Chains of the proteins cited; added tags and fusions are not shown.
# UniProt P0AE70, whole entry, looked up: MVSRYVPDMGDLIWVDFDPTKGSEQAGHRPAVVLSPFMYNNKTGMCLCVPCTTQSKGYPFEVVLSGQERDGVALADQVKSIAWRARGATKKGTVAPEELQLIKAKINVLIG
# The entries are a selection whose mix differs from that of the whole data set. Active and inactive are the calls of the source. No stated cut-off is given here; in the data, active means activation above about 50%; inactive means the rest.
# Target: Endoribonuclease toxin MazF (Escherichia coli (strain K12)) (UniProt P0AE70)
# Experiment: activators of E. coli MazEF toxin-antitoxin RNase, primary screen, biochemical, fluorescence, uHTS (AID 504720)
# Details: FAM/BHQ RNA-DNA oligo cleavage fluorescence, 5 h, at 20 µM, hits give high values
row,Structure (SMILES),activation
1,Cc1cc(C)cc(N(C(=O)c2ccccc2)C2CCN(C(=O)OC(C)(C)C)CC2)c1,inactive: 11.9%
2,O=C(NCC1(N2CCCCC2)CCCCC1)c1ccc(Cl)nc1,inactive: -2.74%
3,O=C(NCC1(N2CCOCC2)CCCCC1)c1cc2ccccc2o1,inactive: -4.29%
4,COc1ccc(Cl)cc1C(=O)NCC1(N2CCOCC2)CCCCC1,inactive: 0.297%
5,O=C(OC1CN2CCC1CC2)C1c2ccccc2Oc2ccccc21 (stereo unspecified),inactive: -8.18%
6,O=C(NCC1(N2CCCCC2)CCCCC1)c1ccc(Cl)s1,inactive: 6.76%
7,N#CC1(Nc2ccccc2)CCN(Cc2ccccc2)CC1,inactive: -8.84%
8,CCOC(=O)N1CCC(Nc2ccc(OC)cc2)CC1,inactive: 8.16%
9,COc1ccc(C(=O)NCC2(N3CCCCC3)CCCCC2)c(OC)c1OC,inactive: -6.09%
10,CC(C)(C)OC(=O)N1CCC(N(C(=O)c2ccccc2)c2ccc(F)cc2)CC1,inactive: 8.28%
11,COc1ccc(C(=O)NCC2(N3CCCCC3)CCCCC2)cc1,inactive: 1.66%
12,O=C(NCC1(N2CCCCC2)CCCCC1)c1cccs1,inactive: -2.11%
13,O=C(NCC1(N2CCCCC2)CCCCC1)c1ccc(=O)[nH]c1,inactive: 1.53%
14,Cc1cccc(NC2(C#N)CCN(Cc3ccccc3)CC2)c1,inactive: 11.7%
15,CSc1ccccc1C(=O)NCC1(N2CCCCC2)CCCCC1,inactive: 0.56%
16,COc1cc(C(=O)NCC2(N(C)C)CCCCC2)ccc1OC(F)F,inactive: -8.83%
17,CCOC(=O)N1CCC(Nc2cccc(C)c2)CC1,inactive: 7.36%
18,O=C1CCN(Cc2ccccc2)CC1,inactive: -1.41%
19,CCOc1ccc(C)cc1CN(CCCl)CCCl,inactive: 1.2%
20,CCOC(=O)N1CCC(Nc2ccc(F)cc2)CC1,inactive: 0.631%
21,COc1ccc(NC2CCN(CCc3ccccc3)CC2)c(OC)c1,inactive: 4.94%
22,O=C(NCC1(N2CCCCC2)CCCCC1)c1ccc(F)cc1,inactive: -0.501%
23,CCCCOc1ccc(C(=O)NCC2(N3CCOCC3)CCCCC2)cc1,inactive: 1.89%
24,O=P1(N(CCCl)CCCl)SCCCS1,inactive: -3.31%
25,O=C(NCC1(N2CCCCC2)CCCCC1)c1cccc(C(F)(F)F)c1,inactive: -4.06%
26,O=C(NCC1(N2CCOCC2)CCCCC1)c1cc(=O)[nH]c2ccccc12,inactive: 2.46%

row,Structure (SMILES),activation
1,COc1cc(C(=O)NCC2(N3CCCCC3)CCCCC2)ccc1OC(F)F,inactive: 10.2%
2,COc1ccc(NC2CCN(C(=O)OC(C)(C)C)CC2)cc1,inactive: 8.28%
3,CC(C)c1ccc(C(=O)NCC2(N3CCOCC3)CCCCC2)cc1,inactive: 3.62%
4,CN1CCN(CCOC(=O)C(O)(c2ccccc2)c2ccccc2)CC1,inactive: -3.91%
5,O=C(NCC1(N2CCCCC2)CCCCC1)c1ccc(OC(F)F)cc1,inactive: 4.57%
6,N#CC1(Nc2ccccc2)CCN(CCc2ccccc2)CC1,inactive: -3.52%
7,CCN1CCC(Nc2ccc(Cl)cc2)CC1,inactive: 8.48%
8,O=C(NCC1(N2CCCCC2)CCCCC1)c1cccc([N+](=O)[O-])c1,inactive: 3.62%
9,CSc1ccc(C(=O)NCC2(N3CCOCC3)CCCCC2)cc1,inactive: -0.67%
10,O=C(NCC1(N2CCCCC2)CCCCC1)c1cncc(Br)c1,inactive: -1.63%
11,CN1CCC(Nc2cccc(F)c2)CC1,inactive: 4.18%
12,CCCOc1ccc(C(=O)NCC2(N(C)C)CCCCC2)cc1OC,inactive: -1.68%
13,Cc1ccc(C(=O)NCC2(N(C)C)CCCCC2)o1,inactive: 3.36%
14,CC(C)c1ccc(NC2CCN(C(=O)OC(C)(C)C)CC2)cc1,inactive: 5.82%
15,CN(C)c1cccc(C(=O)NCC2(N3CCCCC3)CCCCC2)c1,inactive: 9.12%
16,COc1ccc(CN(CCCl)CCCl)cc1Cl,inactive: -4.38%
17,O=C(NCC1(N2CCOCC2)CCCCC1)c1cc(F)c(F)cc1Cl,inactive: 7.95%
18,COc1cc(OC)c(C(=O)NCC2(N(C)C)CCCCC2)cc1OC,inactive: 3.95%
19,CCOC(=O)N1CCC(Nc2ccc(C)cc2)CC1,inactive: 3.98%
20,N/C(=N\O)c1c(N)no[n+]1[O-],inactive: -1.53%
21,O=C(OC1CN2CCC1CC2)C1c2ccccc2C=Cc2ccccc21 (stereo unspecified),inactive: 10.4%
22,CCc1cc(C(=O)NCC2(N3CCCCC3)CCCCC2)sc1C,inactive: 1.08%
23,COc1cc(C(=O)NCC2(N3CCOCC3)CCCCC2)cc(OC)c1C,inactive: -0.343%
24,O=C(NCC1(N2CCOCC2)CCCCC1)c1cc(Br)ccc1Cl,inactive: -0.134%
25,COc1ccc(C(=O)NCC2(N3CCOCC3)CCCCC2)cc1OC,inactive: -1.89%
26,CN(C)C1(CNC(=O)c2cccc(C#N)c2)CCCCC1,inactive: 7.48%

row,Structure (SMILES),activation
1,CCCN1CCC(Nc2cc(OC)cc(OC)c2)CC1,inactive: -1.64%
2,Cc1cc(N(CCCl)CCCl)ccc1C=O,inactive: 9.32%
3,c1ccc(CN2CCC(Nc3ccccc3)CC2)cc1,inactive: 1.4%
4,N#Cc1ccc(C(=O)NCC2(N3CCCCC3)CCCCC2)cc1,inactive: 5.02%
5,CC(C)(C)OC(=O)N1CCC(N(C(=O)c2ccccc2)c2ccc(Cl)cc2)CC1,inactive: 8.83%
6,CCN1CCC(Nc2cccc(F)c2)CC1,inactive: 9.1%
7,Cc1ccccc1NC1(C#N)CCN(Cc2ccccc2)CC1,inactive: 2.29%
8,Cn1c(=O)[nH]cc(N(CCCl)CCCl)c1=O,inactive: 2.63%
9,CN(C)c1ccc(C(=O)NCC2(N3CCCCC3)CCCCC2)cc1,inactive: 2.31%
10,O=C(NCC1(N2CCCCC2)CCCCC1)c1ccco1,inactive: -0.048%
11,CC(=O)N(c1ccccc1)C1CCNCC1,inactive: 3.1%
12,COc1cc(OC)cc(C(=O)NCC2(N3CCCCC3)CCCCC2)c1,inactive: -3.45%
13,Fc1ccccc1NC1CCN(Cc2ccccc2)CC1,inactive: 7.73%
14,Cc1ccc(C(=O)NCC2(N3CCCCC3)CCCCC2)o1,inactive: 1.86%
15,Cc1ccc(NC2(C#N)CCN(Cc3ccccc3)CC2)cc1,inactive: 14%
16,COc1cccc(C(=O)N(c2cc(C)cc(C)c2)C2CCN(C(=O)OC(C)(C)C)CC2)c1,inactive: -0.817%
17,COc1cc(OC)cc(C(=O)NCC2(N3CCOCC3)CCCCC2)c1,inactive: 2.26%
18,CCC(CO)(C(=O)OC1CN2CCC1CC2)c1ccccc1 (stereo unspecified),inactive: 1.77%
19,CN1CCC(Nc2ccc(Cl)cc2)CC1,inactive: 13.2%
20,CN1CCC(Nc2ccc(F)c(Cl)c2)CC1,inactive: -4.68%
21,CCOc1ncccc1C(=O)NCC1(N2CCOCC2)CCCCC1,inactive: 2.16%
22,O=C(O)C1(Nc2ccccc2)CCN(Cc2ccccc2)CC1,inactive: 4.71%
23,CC(C)(C)OC(=O)N1CCC(Nc2ccccc2)CC1,inactive: -16.1%
24,CCCOc1ccc(C(=O)NCC2(N(C)C)CCCCC2)cc1,inactive: 8.39%
